Results deposited as PubChem BioAssay AID504761 (Drosophila RNAi Screening Center, 2011)
Test: 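Insect host genes that dengue virus relies on to spread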 (primary screen). Cell system: D.Mel-2 cells from Drosophila. Reagent: long dsRNA against Drosophila genes. Challenge: infection with dengue virus type 2; dose and infection time not stated. Read-out: 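Per well on two replicate plates, imaging gave the percent of cells positive for viral envelope protein, ranked by infection, and a nuclear count of cells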. Reading the numbers: infection score: higher = more virus-infected cells; cell count: higher = more cells in the well. Rule for the call: 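Very low infection ranking in both replicate wells (chance probability at most 0.065), then a retest showing infection dropped 1.5-fold or more at p below 0.05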. Meaning of the calls: active = confirmed: knock-down lowers infection; inactive = not picked or not confirmed.
The screen tested about 22,000 reagents; this is an unselected part of those that have a named target and a result. Over the whole deposit, 116 (0.52%) are marked active. 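Calls depend on retest data that are not deposited; infection was ranked per plate without normalising between plates; the unit of the infection score is not given.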 The raw values are shown without normalisation. A plus sign joins genes that one reagent is predicted to hit. Not given: the amount of reagent, the time to read-out.

| predicted target | amplicon | infection score, replicate 1 | infection score, replicate 2 | cell count, replicate 1 | cell count, replicate 2 | outcome |
| --- | --- | --- | --- | --- | --- | --- |
| nac | DRSC16520 | 14.4 | 5.2 | 5821 | 6918 | inactive |
| CG33060 | DRSC09939 | 2.59 | 4.75 | 5786 | 5793 | inactive |
| CG11905 | DRSC09863 | 3.2 | 7.43 | 6776 | 6397 | inactive |
| CG11905 | DRSC24702 | 8.86 | 25.3 | 6278 | 5978 | inactive |
| Syn | DRSC16876 | 3.75 | – | 7021 | 457 | inactive |
| Syn | DRSC26448 | 3.5 | 3.32 | 6597 | 6031 | inactive |
| CG32333 | DRSC08627 | 5.53 | 8.15 | 6983 | 5866 | inactive |
| CG32333 | DRSC08629 | 1.83 | 0.4 | 5738 | 6064 | inactive |
| CG31100 | DRSC14453 | 1.56 | 3.74 | 6397 | 6818 | inactive |
| CG31100 | DRSC14455 | 1.61 | 10 | 6215 | 6533 | inactive |
| CG14306 (retired record) | DRSC14785 | 7.06 | 4.8 | 6314 | 6060 | inactive |
| plum | DRSC16054 | 5.29 | 2.04 | 6652 | 6866 | inactive |
| CG15812 | DRSC08479 | 0.66 | 3.64 | 5872 | 5876 | inactive |
| CG12662 | DRSC17865 | 14.8 | 9.31 | 5228 | 3404 | inactive |
| l(3)mbt | DRSC16983 | 2.54 | 5.17 | 5903 | 5782 | inactive |
| l(3)mbt | DRSC26103 | 4.89 | 6.85 | 5802 | 5826 | inactive |
| Epg5 | DRSC14778 | 3.2 | 1 | 5944 | 5598 | inactive |
| Trm7-34 | DRSC16171 | 6.67 | 3.03 | 1095 | 6407 | inactive |
| CG12766 | DRSC08295 | 0.71 | 3.89 | 6652 | 6168 | inactive |
| Nca | DRSC11233 | 5.26 | 8.23 | 6697 | 6610 | inactive |
| Pburs | DRSC02483 | 4.6 | 5.31 | 5756 | 6125 | inactive |
| CG5023 | DRSC15697 | 9.8 | 6.47 | 3581 | 5800 | inactive |
| Slob | DRSC02296 | 8.41 | 3.34 | 2366 | 6502 | inactive |
| Tsp42A | DRSC04862 | 4.8 | 12.2 | 6917 | 4003 | inactive |
| CG30350 | DRSC07690 | 14.2 | 10.2 | 5188 | 5223 | inactive |
| PrBP | DRSC03189 | 4.24 | 2.94 | 6373 | 6598 | inactive |
| PrBP | DRSC25862 | 1.25 | 1.57 | 6248 | 6299 | inactive |
| Cubn | DRSC18256 | 3.11 | 3.54 | 6941 | 6972 | inactive |
| Cubn | DRSC29380 | 20.9 | 16.4 | 4161 | 5225 | inactive |

The list goes on (2 carried over from the part before).
| predicted target | amplicon | infection score, replicate 1 | infection score, replicate 2 | cell count, replicate 1 | cell count, replicate 2 | outcome |
| --- | --- | --- | --- | --- | --- | --- |
| Cubn | DRSC18256 | 3.11 | 3.54 | 6941 | 6972 | inactive |
| Cubn | DRSC29380 | 20.9 | 16.4 | 4161 | 5225 | inactive |
| nbs | DRSC11373 | 7.03 | 1.43 | 5917 | 6563 | inactive |
| nbs | DRSC23793 | 2.84 | 1.05 | 5597 | 5829 | inactive |
| CG4025 | DRSC18523 | 2.55 | 15.7 | 6306 | 5880 | inactive |
| CG33223 | DRSC17572 | 2.71 | 1.2 | 6237 | 6760 | inactive |
| CG33223 | DRSC26875 | 3.45 | 8.64 | 6609 | 6610 | inactive |
| kud | DRSC11086 | 2.05 | 3.12 | 6597 | 6244 | inactive |
| CG4438 | DRSC02746 | 10.7 | 10 | 4630 | 2755 | inactive |
| CG4438 | DRSC25747 | 9.21 | 24.5 | 6220 | 6106 | inactive |
| Cep290 | DRSC08359 | 3.39 | 2.39 | 6203 | 6265 | inactive |
| Cep290 | DRSC29987 | 13 | 6.1 | 6101 | 6133 | inactive |
| TwdlH | DRSC14735 | – | 10.4 | 386 | 3298 | inactive |
| peng | DRSC20583 | 11.2 | 6.86 | 6148 | 5701 | inactive |
| peng | DRSC29638 | – | 24.9 | 323 | 5615 | inactive |
| AANATL3 | DRSC02089 | 5.85 | 3.17 | 6340 | 1357 | inactive |
| CG6052 | DRSC10574 | 2.63 | 0.87 | 6228 | 6293 | inactive |
| CG33296 | DRSC00998 | 4.61 | 6.28 | 6272 | 6404 | inactive |
| CG33296 | DRSC23839 | 2.82 | 4.39 | 6846 | 6191 | inactive |
| TrxT | DRSC23117 | 0.91 | 1 | 6483 | 7218 | inactive |
| CG13713 | DRSC08322 | 2.08 | 2.03 | 5916 | 6162 | inactive |
| CG9698 | DRSC16539 | 3.59 | – | 3620 | 294 | inactive |
| CG15147 | DRSC02447 | 2.6 | 0.94 | 6341 | 6794 | inactive |
| CG15147 | DRSC02448 | 5.23 | 5.5 | 6215 | 6657 | inactive |
| CG15147 | DRSC27255 | 2.87 | 14 | 6758 | 6196 | inactive |
| CG7290 | DRSC10800 | 3.11 | 3.93 | 6924 | 6390 | inactive |
| CG7290 | DRSC26651 | 6.09 | 1.81 | 6318 | 6191 | inactive |
| CG14380 | DRSC14840 | 8.73 | 6.54 | 5912 | 6742 | inactive |
| CG31562 (retired record) | DRSC12273 | 5.38 | 8.01 | 6381 | 6208 | inactive |
| CG31562 (retired record) | DRSC12274 | 2.25 | 6.07 | 6125 | 6920 | inactive |
| Rpn7 | DRSC16841 | 4.1 | 1.41 | 1754 | 2130 | inactive |
| Rpn7 | DRSC25951 | 4.33 | 0.48 | 2751 | 3734 | inactive |
| CG11112 | DRSC06038 | 6.37 | 7.89 | 6701 | 6676 | inactive |
| CG11112 | DRSC25552 | 3.5 | 4.67 | 6106 | 6140 | inactive |
| CG12831 | DRSC06179 | 9.4 | 2.74 | 5859 | 656 | inactive |
| CG3368 | DRSC15485 | 5.19 | 3.69 | 6860 | 6635 | inactive |
| Rpt4R | DRSC10791 | 5.19 | 2.67 | 6122 | 6506 | inactive |
| Rpt4R | DRSC25928 | 0.9 | 0.68 | 5971 | 6571 | inactive |
| CG15097 | DRSC06526 | 8.65 | 4.74 | 6394 | 6694 | inactive |
| CG15097 | DRSC27170 | 13.3 | 18.9 | 6180 | 6886 | inactive |
| CG18563 | DRSC02676 | 4.95 | 2.15 | 5917 | 6640 | inactive |
| Boot | DRSC06412 | 25.7 | 10.6 | 3886 | 6211 | inactive |
| Uxt | DRSC01962 | 1.64 | 3.1 | 6647 | 6671 | inactive |
| Csk | DRSC12861 | 2.08 | 0.64 | 5905 | 6061 | inactive |
| Csk | DRSC23272 | 2.1 | 15.4 | 5910 | 6545 | inactive |
| Csk | DRSC26697 | 2.29 | 1.69 | 6214 | 6381 | inactive |
| frc + Coq4 + Gorab | DRSC29314 | 1.3 | – | 462 | 311 | inactive |
